We go through three substances from paper PMC3426546, “A Unique Bivalent Binding and Inhibition Mechanism by the Yatapoxvirus Interleukin 18 Binding Protein” (2012).

As usually defined, the Kd is the concentration at which binding is half-saturated. Higher therefore signals lower affinity. The koff is the first-order rate constant of dissociation. Low values mean a long-lived complex, high ones a short-lived complex. Usually kon stands for a measure of how fast the partners come together. A lower kon goes with slower complex formation.

The assay addresses ECTV-IL18BP expressed and secreted from mammalian cells, biotinylated (ectromelia virus). As to the kind of experiment: SPR.
IL18 S105R (ligand) came in with a Kd of 0.1 nM, a koff of 2e-05 s⁻¹ and a kon of 350000 M⁻¹ s⁻¹.

Take IL18 P57R (ligand): the Kd amounted to 25 nM, the off-rate (koff) was 0.0008 s⁻¹ and the kon came to 40000 M⁻¹ s⁻¹.

Substance IL18 P57R,S105R (ligand) gave a Kd of 4 nM, an off-rate (koff) of 0.00039 s⁻¹ and a kon of 90000 M⁻¹ s⁻¹.
